pKi: −log10 of the molar value.
Target: TMPKmt (M. tuberculosis TMPK) (Mycobacterium tuberculosis, UniProt P9WKE1)
Assay type: biochemical
Details: pH 7.4

Amino acid sequences for entries named in this document (tags omitted). A change or cut given only in a name is not applied to a line headed by its entry.
UniProt P9WKE1: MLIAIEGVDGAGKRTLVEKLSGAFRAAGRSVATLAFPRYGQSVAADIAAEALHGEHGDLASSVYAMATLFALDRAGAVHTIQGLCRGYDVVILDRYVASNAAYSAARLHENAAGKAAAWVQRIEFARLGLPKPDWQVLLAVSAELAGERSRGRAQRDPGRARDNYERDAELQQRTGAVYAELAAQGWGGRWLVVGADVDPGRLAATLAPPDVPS

Q: With “5-[4-(5-Methyl-2,4-dioxo-3,4-dihydro-2H-pyrimidin-1-yl-methyl)-phenyl]-penten-2-oic acid [Compound 28]” as the substance, how does the pKi read?
A: 4.32

From US20080096907A1, “Aryl, Pyrimidyl Compounds, Pharmaceutical Compositions Comprising them, Their Use as Antimicrobial Agents” (INSTITUT PASTEUR, priority 2004, published 2008)
